From US20060165722A1 (priority 2005, published 2006)

System: tetanus toxin
Assay: Survival of intranasally immunized mice to Tetanus Toxin challenge
Assay type: in vivo
Settings: s.c. challenge 2 months after four weekly intranasal doses

Substance: Tetanus toxoid
- protection against tetanus toxin challenge (paralysis and death): not protected
